Reference: article PMC9778238, “How Discoloration of Porcine Cruor Hydrolysate Allowed the Identification of New Antifungal Peptides” (Foods, 2022)

Experiment: Loss of peptide on discoloration (heme precipitation at pH 4.5), peak area in RP-UPLC-MS/MS
Settings: variation of the peak area of the peptide between raw and discolored hydrolysate spectra; 100 = absent in discolored hydrolysate
For “AAFQKVVAGVANA [porcine hemoglobin fragment β 129–141]”, the “Decrease (%)” value was 100.0%.
In the case of “CLLVTLAAHHPDDFNPS [porcine hemoglobin fragment α 104–120]”, the “Decrease (%)” value is reported as 46.0%.
In the case of “DPENFRLLGNVIVVVLA [porcine hemoglobin fragment β 100–116]”, the “Decrease (%)” value is reported as 38.0%.
For “ERMFLGF [porcine hemoglobin fragment α 30–36]”, the “Decrease (%)” value was 17.5%.
In the case of “ERMFLGFPTTKTYFPHF [porcine hemoglobin fragment α 30–46]”, the “Decrease (%)” value is reported as 19.8%.
In the case of “FESFGDLSNAD [porcine hemoglobin fragment β 43–53]”, the “Decrease (%)” value is reported as 100.0%.
For “FRLLGNVIVVVLARRLGHDFNPNVQ [porcine hemoglobin fragment β 104–128]”, the “Decrease (%)” value was 100.0%.
For “GAEALERMFLGFPT [porcine hemoglobin fragment α 25–38]”, the “Decrease (%)” value was 38.0%.
In the case of “GLWGKVNVDEVGGEALGRL [porcine hemoglobin fragment β 14–32]”, the “Decrease (%)” value is reported as 49.9%.
With “HVDPENFRLLGNVIV [porcine hemoglobin fragment β 98–112]” the “Decrease (%)” value was 25.0%.
In the case of “HVDPENFRLLGNVIVVVLARRLGHDFNPNVQA [porcine hemoglobin fragment β 98–129, synthesized]”, the “Decrease (%)” value is reported as 100.0%.
For “KLLSHCLLVTLAAHHPD [porcine hemoglobin fragment α 99–115]”, the “Decrease (%)” value was 38.0%.
For “LERMFLGF [porcine hemoglobin fragment α 29–36]”, the “Decrease (%)” value was 20.4%.
With “LSDLHAHKLRVDPVNF [porcine hemoglobin fragment α 83–98]” the “Decrease (%)” value was 22.5%.
With “PNVQAAFQKVVAGVANALA [porcine hemoglobin fragment β 125–143]” the “Decrease (%)” value was 38.0%.
With “RMFLGFPTTKTYFPHF [porcine hemoglobin fragment α 31–46]” the “Decrease (%)” value was 22.6%.
For “SDLHAHKLRVDPVNF [porcine hemoglobin fragment α 84–98]”, the “Decrease (%)” value was 12.0%.
With “SFGDLSNADAVMGNPKVK [porcine hemoglobin fragment β 45–62]” the “Decrease (%)” value was 46.0%.
For “SFSDGLKHLDNLKGTFA [porcine hemoglobin fragment β 71–87]”, the “Decrease (%)” value was 46.0%.
With “SNADAVMGNPKVKAH [porcine hemoglobin fragment β 50–64]” the “Decrease (%)” value was 38.0%.
In the case of “VLTSKYR [porcine hemoglobin fragment α 135–141]”, the “Decrease (%)” value is reported as 10.1%.
